Compound potency records, mixed from different reports. Data source: NIAID ChemDB in PubChem.

Shared fields: toxicity to cultured cells; endpoint: CC50

An empty or dashed field is not shown. CCn is the concentration with n% toxicity to the cells. Conditions beyond the fields shown may differ between rows.

structure | cell line | read by | value
FCc1cn(-c2ccnc3cc(Cl)ccc23)nn1 | BGM | MTT | 763 µM
OCC(CO)OCn1c(Br)nc2c(Cl)c(Cl)ccc21 | KB | - | >100 µM
O=C1CC[C@H](O)c2cc(O)cc(O)c21 | BCA | - | 2.96 µg/mL
C/C=C/c1occ(C(=O)c2c(OC)cc(OC)cc2C(=O)OC)c(=O)c1OC | Huh7.5.1 | MTT | >50 µM
Nc1nc(=O)n([C@@H]2CC[C@H](CO)O2)cc1F | RAJI | - | 25 µM
CC(=O)Nn1cnc2c(Nc3ccccc3)ncnc2c1=N | Vero cells | - | 44.91 µg/mL
Cc1c(-c2ccccc2)n(-c2ccc(F)cc2)c2ccc(C(C)C)cc2c1=O | HELA-OHIO | MTT | >2 µg/mL
COc1cc(O)c2c(c1)[C@H](O)[C@@H](O)CC2=O | BCA | - | 7.24 µg/mL
Cc1ccc(-n2ncc3c(NC(=O)Nc4ccc(S(N)(=O)=O)cc4)ncnc32)c(C)c1 | HUH 9B | - | 26 µM
CCn1c(-c2cccc(F)c2)c(C)c(=O)c2cc(C(C)C)ccc21 | HELA-OHIO | MTT | >4 µg/mL
COc1ccc(Nc2nc3ccc(C)cc3s2)c(OC)c1OC | Ava5 | MTS | 200 µM
Nc1nc2c(Cl)cc(Cl)cc2n1COCCO | KB | - | >100 µM
COc1ccnc2[nH]cc(C(=O)C(=O)N3CCN(C(=O)c4ccccc4)C[C@H]3C)c12 | Macrophage | - | >225 µM
COc1ccc2[nH]c3c(C)c(C)c(OC)c(O)c3c2c1 | NCI-H187 | resazurin | 8.2 µg/mL
Cc1ccc(Nc2nc3ccc(C)cc3s2)c(C)c1 | Ava5 | MTS | 140 µM
CC(C)=CCC/C(C)=C/CC/C(=C\CC/C(C)=C/C(=O)O)C(=O)O | NCI-H187 | resazurin | >20 µg/mL
COc1cc2c(cc1[C@H](C)Nc1ccccc1)C=CC(C)(C)O2 | L6 rat skeletal myoblasts | - | 16.2 µM
Cc1cc(C=O)cc(C)c1Oc1cc(Nc2ccc(C#N)cc2)c2ccccc2n1 | HuCCA-1 | MTT | ≥50 µg/mL
N#Cc1nc2c(-c3nc4ccccc4[nH]3)c(N)n(CCc3ccccc3Cl)c2nc1C#N | L6 rat skeletal myoblasts | resazurin / fluorescence | 143 µM
Cc1cccc(Nc2nc3ccc(C)cc3s2)c1 | Ava5 | MTS | 160 µM
Cc1ccc(-n2ncc3c(NCCc4c[nH]c5ccccc45)ncnc32)c(C)c1 | HUH 9B | - | >32 µM
CC1(C)C2CC=C3C(CC[C@@]4(C)C5C[C@](C)(C(=O)O)CC[C@]5(C)CC[C@]34C)[C@@]2(C)CCC1(O)O | H522-TI | - | >20 µM
COc1cc2c(cc1[C@@H](C)Nc1ccccc1)C=CC(C)(C)O2 | L6 rat skeletal myoblasts | - | 16.7 µM
COC(=O)c1cc(O)cc(OC)c1C(=O)c1c(O)c(Cl)c(C)c(Cl)c1O | Huh7.5.1 | MTT | >50 µM
N=c1c2ncnc(Nc3ccc(F)cc3)c2ncn1NC(=O)c1ccncc1 | Vero cells | - | 0.91 µg/mL
COc1cccc(Cn2c(-c3ccc(-n4cncn4)cc3)nc3c(F)cc(F)cc32)c1 | Vero-C-1008 | neutral red / absorbance | >50 µg/mL
COc1ccc2nc3n[nH]c(C)c3c(SCc3ccco3)c2c1 | FS-85 | - | >100 µg/mL
Cc1ccc(CCn2c(N)c(-c3nc4ccccc4[nH]3)c3nc(C#N)c(C#N)nc32)cc1 | L6 rat skeletal myoblasts | resazurin / fluorescence | 141 µM
CCOc1ccc(-c2cc(=O)c3cc(C(C)C)ccc3n2C)cc1C | HeLa S3 | MTT | >5.8 µg/mL
CC(=O)Nn1cnc2c(Nc3ccc(C#N)cc3)ncnc2c1=N | Vero cells | - | 42.1 µg/mL
COc1c(O)c2c(c(O)c1CCOC(C)=O)CCC(OC)C2=O | NCI-H187 | - | 0.25 µg/mL
Clc1ccccc1-n1ncc2c(NCCc3c[nH]c4ccccc34)ncnc21 | HUH 9B | - | 20 µM
CCOC(=O)c1cn(-c2ccnc3cc(Cl)ccc23)nn1 | BGM | MTT | ≥662 µM
OC[C@H]1O[C@@H](n2ccc3c(-c4cccc5c4oc4ccccc45)nc(Cl)nc32)C(O)C1O | CCRF-CEM leukemia cells | MTT | 49.8 µM
N#Cc1ccc(Nc2cc(Oc3ccc(C#N)cc3)c3ccccc3n2)cc1 | MOLT-3 | XTT | ≥50 µg/mL
COc1ccc(Cc2cc(C3CCN(C(=O)c4ccc5c(c4)OCO5)CC3)ncn2)cc1 | Jurkat cells (PMA-stimulated) | - | 0.5 µM
Cc1cc(C#N)cc(C)c1Oc1cc(Nc2ccc(C#N)cc2)nc2ccccc12 | HuCCA-1 | MTT | ≥50 µg/mL
Cc1ccc2nc(Nc3cccc(Cl)c3)sc2c1 | Ava5 | MTS | 80 µM
Cc1nc(N)nc2c1ccn2[C@@H]1O[C@H](CO)C(O)C1O | BJ fibroblasts | MTT | 75.22 µM
Nc1nc2c(ncn2COC(CO)CO)c(=O)[nH]1 | RF | cell count | >900 µM
CCN(CC)CCCC(C)n1c(N)c(-c2nc3ccccc3[nH]2)c2nc(C#N)c(C#N)nc21 | L6 rat skeletal myoblasts | resazurin / fluorescence | 2 µM
O=c1cc(-c2ccccc2)c2cccnc2n1O | HeLa | - | <100 µM
COc1c(C)c(C)c2[nH]c3ccccc3c2c1O | NCI-H187 | resazurin | 4.2 µg/mL
CCCCc1c(O)c2cccnc2n(O)c1=O | HeLa | - | <100 µM
COc1ccc(Cc2cc(C3CCN(C(=O)c4ccc(Cl)c(Cl)c4)CC3)nc(N)n2)cc1 | Jurkat cells (PMA-stimulated) | - | >5 µM
CCO/N=C/c1ccc(OCCN2CCN(c3ccc(Cl)nn3)CC2)cc1 | MRC-5 | visual reading | >1 µg/mL
COc1ccc2[nH]c3c(Cc4ccc5[nH]c6c(C)c(C)c(OC)c(O)c6c5c4)c(C)c(OC)c(O)c3c2c1 | NCI-H187 | resazurin | 19.2 µg/mL
Fc1cccc(Cn2c(-c3ccc(-n4cncn4)cc3)nc3c(F)cc(F)cc32)c1 | Vero-C-1008 | neutral red / absorbance | >50 µg/mL
COC(=O)C1=C2Nc3ccccc3[C@@]23CCN2[C@H](O)[C@]4(CC5C[C@]67CC(=O)O[C@H]6CCC6NC[C@@]8(c9cccc(OC)c9N(C4)[C@@H]58)[C@@H]67)[C@@H]4OCC[C@]4(C1)[C@H]23 | J-Lat Tat-GFP 82 | absorbance | 0.35 µM
COS(=O)(=O)[O-].Cn1c(-c2c[nH]c3ccccc23)c[n+](C)c1-c1cn(C)c2cc(Br)ccc12 | P-388 | - | 0.34 µg/mL
CCc1nc2cc3ccccc3cc2cc1C(=O)N[C@@H](C/C=C/C[C@H](NC(=O)c1cc2cc3ccccc3cc2nc1CC)C(=O)N1CCC[C@H]1C(=O)N[C@@H](Cc1ccccc1)C(=O)NCCCN)C(=O)N1CCC[C@H]1C(=O)N[C@@H](Cc1ccccc1)C(=O)NCCCN | HEK293T | WST | ≥60 µM
CCOC(=O)c1ccnc2c1c(-c1ccc(-c3ccc(CN)cc3)cc1)cc(=O)n2O | HeLa | - | 0.32 µM
O=c1[nH]c(=O)n([C@H]2C[C@H](O)[C@@H](CO)O2)cc1I | OMK | cell count | 133 µM
FC(F)c1cn(-c2ccnc3cc(Cl)ccc23)nn1 | BGM | MTT | ≥694 µM
O=c1c(-c2ccccc2)c(O)c2cc(-c3ccccc3-n3cccn3)cnc2n1O | HeLa | - | <100 µM
OCC(CO)OCn1c(Br)nc2cc(Cl)c(Cl)cc21 | KB | - | >100 µM
O=C(Nc1cc(C(F)(F)F)ccc1N1CCCCC1)c1ccncc1 | Huh7/Rep-Feo1b | MTS | >30 µM
Fc1cccc(Nc2ncnc3c2cnn3-c2ccc(Cl)cc2)c1 | HUH 9B | - | >36 µM
O=C1CC[C@H](O)c2cccc(O)c21 | BCA | - | 11.27 µg/mL
Cc1cc2c(c(C)c1OCC(C)C)c(=O)cc(-c1ccccc1)n2C | HeLa S3 | MTT | >4 µg/mL
CCCCCCCCCCCC(=O)c1c(O)cc(O)cc1O | BC | resazurin | 9.04 µg/mL
COc1ccc(Cc2cc(C3CCN(C(=O)c4ccc5c(c4)OCO5)CC3)n[nH]2)cc1 | Jurkat cells (PMA-stimulated) | - | >5 µM
OC[C@H]1O[C@@H](n2ccc3c(-c4ccco4)nc(F)nc32)C(O)C1O | CEM-DNR leukemia cells | MTT | 47.2 µM
CCO/N=C/c1ccc(OCC2CCCN(c3ccc(Cl)nn3)C2)cc1 | MRC-5 | visual reading | >1 µg/mL
C=CCn1c(-c2ccc(-n3cncn3)cc2)nc2c(F)cc(F)cc21 | Vero-C-1008 | neutral red / absorbance | >50 µg/mL
CCO/N=C/c1ccc(OCCCCCOc2ccc(Cl)nn2)cc1 | MRC-5 | neutral red | >0.5 µg/mL
OC1(c2cn(-c3ccnc4cc(Cl)ccc34)nn2)CCCCC1 | BGM | MTT | ≥609 µM
COc1c(C)c(C)c2[nH]c3ccc(Cc4c(C)c(OC)c(O)c5c4[nH]c4ccccc45)cc3c2c1O | NCI-H187 | resazurin | 25.3 µg/mL
Nc1nc(=O)n([C@H]2C[C@H](O)[C@@H](CO)O2)cc1/C=C/Cl | NIH 3T3 | cell count | 216 µM
CCO/N=C/c1ccc(OCCC2CCN(c3ccc(C)nn3)CC2)cc1O | MRC-5 | neutral red | >0.1 µg/mL
NC(=O)CCNC(=O)c1ccccc1SCc1ccc(OP2(=O)OCc3ccccc3O2)cc1 | Macrophage | XTT | >50 µM
CN(C)C(=O)CNc1cccc(-c2cc(=O)n(O)c3ncccc23)c1 | HeLa | - | <100 µM
Cc1cn([C@@H]2O[C@H](CO)[C@@H](CO)[C@@H]2F)c(=O)[nH]c1=O | PBM | - | ≥100 µM
COc1ccc(Cc2cc(C3CCN(C(=O)Cc4ccc5c(c4)OCO5)CC3)nc(N)n2)cc1 | Jurkat cells (PMA-stimulated) | - | >5 µM
Cn1c(-c2ccc(-n3cncn3)cc2)nc2c(F)cc(F)cc21 | Vero-C-1008 | neutral red / absorbance | >50 µg/mL
OC[C@H]1O[C@@H](n2c(Cl)nc3cc(Cl)c(Cl)cc32)[C@H](O)[C@@H]1O | KB | - | 210 µM
Nc1nc2c(ncn2CCC(CO)CO)c(=O)[nH]1 | NIH 3T3 | cell count | 91 µM
COc1cc([C@@H]2c3cc4c(cc3[C@H](O)[C@H]3COC(=O)[C@H]23)OCO4)cc(OC)c1OC | L6 rat skeletal myoblasts | - | 0.01 µM
COc1ccc(CCn2c(N)c(-c3nc4ccccc4n3C)c3nc(C#N)c(C#N)nc32)cc1 | L6 rat skeletal myoblasts | resazurin / fluorescence | 188 µM
OC[C@H]1O[C@@H](n2ccc3c(-c4cc5ccccc5o4)nc(Cl)nc32)C(O)C1O | BJ fibroblasts | MTT | 101.2 µM
N=C(N)c1ccc(-c2cc(-c3ccc(C(=N)N)nc3)no2)cc1 | L6 rat myoblasts | resazurin | 1.76 µM
N#Cc1ccc(Nc2ncnc3c(=N)n(NC(=O)c4ccncc4)cnc23)cc1 | Vero cells | - | 17.2 µg/mL
COc1cc2c(cc1[C@H](C)NS(=O)C(C)(C)C)C=CC(C)(C)O2 | L6 rat skeletal myoblasts | - | 99.1 µM
COc1ccc(-n2c(-c3ccccc3)c(C)c(=O)c3cc(C(C)C)ccc32)cc1 | HELA-OHIO | MTT | >2.5 µg/mL
COc1ccc(Cc2cc(C3CCN(C(=O)c4ccc5ccoc5c4)CC3)nc(N)n2)cc1 | Jurkat cells (PMA-stimulated) | - | >5 µM
COS(=O)(=O)[O-].Cn1c(-c2cn(C)c3ccccc23)c[n+](C)c1-c1cn(C)c2cc(Br)ccc12 | P-388 | - | 0.9 µg/mL
N#Cc1nc2c(-c3nc4ccccc4[nH]3)c(N)n(CCc3cnc[nH]3)c2nc1C#N | L6 rat skeletal myoblasts | resazurin / fluorescence | 4 µM
CCn1c(-c2ccc(-n3cncn3)cc2)nc2c(F)cc(F)cc21 | Vero-C-1008 | neutral red / absorbance | >50 µg/mL

Repeating the final 11 entries:

| structure | cell line | read by | value |
|---|---|---|---|
| COc1cc([C@@H]2c3cc4c(cc3[C@H](O)[C@H]3COC(=O)[C@H]23)OCO4)cc(OC)c1OC | L6 rat skeletal myoblasts | - | 0.01 µM |
| COc1ccc(CCn2c(N)c(-c3nc4ccccc4n3C)c3nc(C#N)c(C#N)nc32)cc1 | L6 rat skeletal myoblasts | resazurin / fluorescence | 188 µM |
| OC[C@H]1O[C@@H](n2ccc3c(-c4cc5ccccc5o4)nc(Cl)nc32)C(O)C1O | BJ fibroblasts | MTT | 101.2 µM |
| N=C(N)c1ccc(-c2cc(-c3ccc(C(=N)N)nc3)no2)cc1 | L6 rat myoblasts | resazurin | 1.76 µM |
| N#Cc1ccc(Nc2ncnc3c(=N)n(NC(=O)c4ccncc4)cnc23)cc1 | Vero cells | - | 17.2 µg/mL |
| COc1cc2c(cc1[C@H](C)NS(=O)C(C)(C)C)C=CC(C)(C)O2 | L6 rat skeletal myoblasts | - | 99.1 µM |
| COc1ccc(-n2c(-c3ccccc3)c(C)c(=O)c3cc(C(C)C)ccc32)cc1 | HELA-OHIO | MTT | >2.5 µg/mL |
| COc1ccc(Cc2cc(C3CCN(C(=O)c4ccc5ccoc5c4)CC3)nc(N)n2)cc1 | Jurkat cells (PMA-stimulated) | - | >5 µM |
| COS(=O)(=O)[O-].Cn1c(-c2cn(C)c3ccccc23)c[n+](C)c1-c1cn(C)c2cc(Br)ccc12 | P-388 | - | 0.9 µg/mL |
| N#Cc1nc2c(-c3nc4ccccc4[nH]3)c(N)n(CCc3cnc[nH]3)c2nc1C#N | L6 rat skeletal myoblasts | resazurin / fluorescence | 4 µM |
| CCn1c(-c2ccc(-n3cncn3)cc2)nc2c(F)cc(F)cc21 | Vero-C-1008 | neutral red / absorbance | >50 µg/mL |